Assay results reported in patent publication US20050222408A1, “Heterocyclic amides with anti-tuberculosis activity” (priority 2003, published 2005).

These compounds were tested on Vero cells (assay: Cytotoxicity, alamar blue assay against Vero cells). Details: Table 1; ToxIC50 over TB MIC.
Format: cell-based

Compound | Therap. Index
O=C(NC1CCCCC1)c1ccc([N+](=O)[O-])o1 [Compound 15, 5-Nitro-furan-2-carboxylic acid cyclohexylamide] | 2.9
COc1cc(CNC(=O)c2ccc([N+](=O)[O-])o2)cc(OC)c1OC [Compound 24, 5-Nitro-furan-2-carboxylic acid 3,4,5-trimethoxy-benzylamide] | 29.5
O=C(NCCc1ccccc1)c1ccc([N+](=O)[O-])o1 [Compound 27, 5-Nitro-furan-2-carboxylic acid phenethyl-amide] | 15.7
COc1ccc(CCNC(=O)c2ccc([N+](=O)[O-])o2)cc1OC [Compound 31, 5-Nitro-furan-2-carboxylic acid [2-(3,4-dimethoxy-phenyl)-ethyl]-amide] | 68.6
COc1cccc(NC(=O)c2ccc([N+](=O)[O-])o2)c1 [Compound 13, 5-Nitro-furan-2-carboxylic acid(3-methoxy-phenyl)-amide] | 23.3
COc1ccc(CNC(=O)c2ccc([N+](=O)[O-])o2)cc1 [Compound 20, 5-Nitro-furan-2-carboxylic acid 4-methoxy-benzylamide] | 163.6
CC(NC(=O)c1ccc([N+](=O)[O-])o1)c1ccccc1 (stereo not shown) [Compound 29, 5-Nitro-furan-2-carboxylic acid(1-phenyl-ethyl)-amide] | 16.0
N#Cc1ccc(NC(=O)c2ccc([N+](=O)[O-])o2)cc1 [Compound 19, 5-Nitro-furan-2-carboxylic acid(4-cyano-phenyl)-amide] | 4.4
COc1ccc(NC(=O)c2ccc([N+](=O)[O-])o2)cc1 [Compound 14, 5-Nitro-furan-2-carboxylic acid(4-methoxy-phenyl)-amide] | 53.6
CCOC(=O)c1ccc(C(=O)Nc2cccc(OC)c2)o1 [Compound 40, 5-(3-Methoxy-phenylcarbamoyl)-furan-2-carboxylic acid ethyl ester] | 0.5
O=C(NCc1ccco1)c1ccc([N+](=O)[O-])o1 [Compound 18, 5-Nitro-furan-2-carboxylic acid(furan-2-ylmethyl)-amide] | 0.7
COc1cccc(NC(=O)c2ccc(Sc3ccccc3)o2)c1 [Compound 36, 5-Phenylsulfanyl-furan-2-carboxylic acid(3-methoxy-phenyl)-amide] | 1.0
COc1cccc(NC(=O)c2ccc([S+]([O-])c3ccccc3)o2)c1 (stereo not shown) [Compound 38, 5-Benzenesulfinyl-furan-2-carboxylic acid(3-methoxy-phenyl)-amide] | 10.4
O=C(Nc1cccc(Br)c1)c1ccc([N+](=O)[O-])o1 [Compound 11, 5-Nitro-furan-2-carboxylic acid(3-bromo-phenyl)-amide] | 9.6
O=C(Nc1cccc(O)c1)c1ccc([N+](=O)[O-])o1 [Compound 35, 5-Nitro-furan-2-carboxylic acid(3-hydroxy-phenyl)-amide] | 7.8
O=C(Nc1ccccc1)c1ccc([N+](=O)[O-])o1 [Compound 17, 5-Nitro-furan-2-carboxylic acid phenylamide] | 2.7
COc1cccc(NC(=O)c2ccc(Br)o2)c1 [Compound 33, 5-Bromo-furan-2-carboxylic acid(3-methoxy-phenyl)-amide] | 0.6
O=C(NCc1ccccc1Cl)c1ccc([N+](=O)[O-])o1 [Compound 21, 5-Nitro-furan-2-carboxylic acid 2-chloro-benzylamide] | 7.3
O=C(Nc1cccc(F)c1)c1ccc([N+](=O)[O-])o1 [Compound 12, 5-Nitro-furan-2-carboxylic acid(3-fluoro-phenyl)-amide] | 11.6
O=C(Nc1cccc(Cl)c1)c1ccc([N+](=O)[O-])o1 [Compound 10, 5-Nitro-furan-2-carboxylic acid(3-chloro-phenyl)-amide] | 8.6
O=C(NC1CCc2ccccc21)c1ccc([N+](=O)[O-])o1 (stereo not shown) [Compound 26, 5-Nitro-furan-2-carboxylic acid indan-1-ylamide] | 3.3
COc1ccc(CNC(=O)c2ccc([N+](=O)[O-])o2)cc1OC [Compound 23, 5-Nitro-furan-2-carboxylic acid 3,4-dimethoxy-benzylamide] | 90.9
COc1ccc(CNC(=O)c2ccc(Br)o2)cc1 [Compound 32, 5-Bromo-furan-2-carboxylic acid 4-methoxy-benzylamide] | 0.5
CC(NC(=O)c1ccc([N+](=O)[O-])o1)c1ccccc1 (stereo not shown) [Compound 30, 5-Nitro-furan-2-carboxylic acid(1-phenyl-ethyl)-amide] | 7.6
O=C(NC12CC3CC(CC(C3)C1)C2)c1ccc([N+](=O)[O-])o1 [Compound 16, 5-Nitro-furan-2-carboxylic acid adamantan-1-ylamide] | 3.0
COc1cccc(NC(=O)c2ccc(S(=O)(=O)c3ccccc3)o2)c1 [Compound 39, 5-Benzenesulfonyl-furan-2-carboxylic acid(3-methoxy-phenyl)-amide] | 4.1
COc1ccc(CNC(=O)c2ccc([N+](=O)[O-])o2)c(OC)c1 [Compound 22, 5-Nitro-furan-2-carboxylic acid 2,4-dimetboxy-benzylamide] | 13.5
COc1ccc(CCNC(=O)c2ccc([N+](=O)[O-])o2)cc1 [Compound 28, 5-Nitro-furan-2-carboxylic acid [2-(4-methoxy-phenyl)-ethyl]-amide] | 25.6
